Measured values from several laboratories, pooled; numbers as filed in NIAID ChemDB.

Shared fields: enzyme or target tests; agent: Hepatitis C virus; protein: NS3/NS4A protease

An empty or dashed field is not shown. Rows are shuffled and stem from different studies. a–b is a range or a potency band. ICn: concentration for n% inhibition.

compound,strain or isolate,endpoint,method,result
CSC[C@@H](C=O)NC(=O)[C@H](CC(C)C)NC(=O)[C@@H](NC(=O)[C@H](Cc1ccccc1C)NC(=O)[C@H](CCC(=O)O)NC(=O)[C@H](CC(=O)O)NC(=O)CCC(=O)O)C(C)(C)C,,IC50,,0.165 µM
C=C[C@H]1C[C@@]1(NC(=O)[C@@H]1C[C@@H](Oc2cc(-c3ccccc3)nc3cc(OC)ccc23)CN1C(=O)[C@@H](NC(=O)OC1CCCC1)C(C)(C)C)C(=O)NS(=O)(=O)C1(Cc2ccccc2)CC1,BMS,IC50,,<0.05 µM
O=C(Nc1ccc(Oc2ccc(Cl)c3ccccc23)c(Cl)c1)c1cc(Cl)ccc1CS(=O)(=O)c1ccc(Cl)cc1,,IC50,,6.5 µM
C#CC[C@@H](C=O)C(=O)[C@H](CCC(=O)O)NC(=O)[C@@H](CC(C)C)NC(=O)[C@H](CCSC)NC(=O)[C@H](CCC(=O)O)NC(=O)[C@H](CC(=O)O)NC(=O)CCC(=O)O,,IC50,,2 µM
C=C[C@@H]1C[C@]1(NC(=O)[C@@H]1C[C@@H](Oc2cc(-c3ccccc3)nc3cc(OC)ccc23)CN1C(=O)[C@@H](NC(=O)OC(C)(C)C)C(C)(C)C)C(=O)NS(=O)(=O)c1cccc(Cl)c1,BMS,IC50,,<0.05 µM
C=CC1C[C@@]1(NC(=O)[C@@H]1C[C@@H](Oc2cc(-c3ccccc3)nc3cc(OC)ccc23)CN1C(=O)[C@@H](NC(=O)OCCOC)C(C)(C)C)C(=O)NS(=O)(=O)C1(Cc2ccccc2)CC1,BMS,IC50,,0.05–0.5 µM
CCCCCCCNC(=O)c1c(O)cc(O)c([N+](=O)[O-])c1O,,IC50,HPLC,31.7 µg/mL
Cc1ccccc1C[C@H](NC(=O)[C@H](CCC(=O)O)NC(=O)[C@H](CC(=O)O)NC(=O)CCC(=O)O)C(=O)N[C@H](C(=O)N[C@@H](CC(C)C)C(=O)N[C@H](C=O)CSCCCc1ccccc1)C(C)(C)C,,IC50,,0.3 µM
O=C(Nc1ccc(Br)cc1)c1c(O)cc(O)c([N+](=O)[O-])c1O,,IC50,HPLC,19.4 µg/mL
CCCC[C@@H](C=O)NC(=O)[C@H](CC(C)C)NC(=O)[C@@H](NC(=O)[C@H](Cc1ccccc1C)NC(=O)[C@H](CCC(=O)O)NC(=O)[C@H](CC(=O)O)NC(=O)CCC(=O)O)C(C)(C)C,,IC50,,0.065 µM
C=CC1CC1(NC(=O)C1C[C@@H](Oc2cc(-c3ccccc3)nc3cc(OC)ccc23)CN1C(=O)C(NC(=O)OC(C)(C)C)C(C)(C)C)C(=O)OCC,H77C,IC50,,0.01 µM
C=CC1CC1(NC(=O)[C@@H]1C[C@@H](OC(=O)Nc2c(C)cccc2Cl)CN1C(=O)[C@@H](NC(=O)OC(C)(C)C)C(C)(C)C)C(=O)NS(=O)(=O)C1CC1,BMS/H77C/J416S,IC50,,0.1–1 µM
C=C[C@@H]1C[C@]1(NC(=O)C1C[C@@H](Oc2cc(-c3csc(NC4CCCCC4)n3)nc3cc(OC)ccc23)CN1C(=O)[C@@H](NC(=O)OC1CCCC1)C(C)(C)C)C(=O)O,,IC50,,<0.1 µM
C=CC1CC1(NC(=O)[C@@H]1C[C@@H](OC(=O)Nc2ccccc2C)CN1C(=O)[C@@H](NC(=O)OC(C)(C)C)C(C)(C)C)C(=O)O,BMS/H77C/J416S,IC50,,>10 µM
O=C(NCCc1ccccc1)c1c(O)cc(O)c([N+](=O)[O-])c1O,,IC50,HPLC,46.2 µg/mL
C=CC1CC1(NC(=O)[C@@H]1C[C@@H](OC(=O)Nc2onc(C)c2C)CN1C(=O)[C@@H](NC(=O)OC(C)(C)C)C(C)(C)C)C(=O)NS(=O)(=O)C1CC1,BMS/H77C/J416S,IC50,,0.1–1 µM
C=C[C@@H]1C[C@]1(NC(=O)[C@@H]1C[C@@H](Oc2cc(-c3ccccc3)nc3cc(OC)ccc23)CN1C(=O)[C@@H](NC(=O)OC(C)(C)C)C(C)(C)C)C(=O)NS(=O)(=O)CC(C)(C)C,BMS,IC50,,<0.5 µM
C=CC1CC1(NC(=O)[C@@H]1C[C@@H](OC(=O)Nc2ccccc2C(=O)OCC)CN1C(=O)[C@@H](NC(=O)OCC)C(C)(C)C)C(=O)NS(=O)(=O)C1CC1,BMS/H77C/J416S,IC50,,<0.1 µM
C=C[C@H]1C[C@@]1(NC(=O)[C@@H]1C[C@@H](Oc2cc(-c3ccccc3)nc3cc(OC)ccc23)CN1C(=O)[C@@H](NC(=O)OC1CCCC1)C(C)(C)C)C(=O)NS(=O)(=O)C1(C)CC1,BMS,IC50,,<0.05 µM
CC[C@@H]1C[C@]1(NC(=O)[C@@H]1C[C@@H](Oc2cc(-c3ccccc3)nc3cc(OC)ccc23)CN1C(=O)[C@H](CC1CCCCC1)NC(=O)OC(C)(C)C)C(=O)NS(=O)(=O)C1CC1,BMS,IC50,,<0.05 µM
C#CC[C@@H](C=O)C(=O)[C@H](CCC(=O)O)NC(=O)[C@@H](CCC(=O)O)NC(=O)[C@H](Cc1ccc(C)cc1)NC(=O)[C@H](CCC(=O)O)NC(=O)[C@H](CC(=O)O)NC(=O)CCC(=O)O,,IC50,,20 µM
C=CC1CC1(NC(=O)[C@@H]1C[C@@H](OC(=O)Nc2cc(C)ccc2F)CN1C(=O)[C@@H](NC(=O)OC(C)(C)C)C(C)(C)C)C(=O)NS(=O)(=O)C1CC1,BMS/H77C/J416S,IC50,,<0.1 µM
C=C[C@H]1C[C@@]1(NC(=O)[C@@H]1C[C@@H](Oc2cc(-c3ccccc3)nc3cc(OC)ccc23)CN1C(=O)[C@@H](NC(=O)OC(C)(C)C)C(C)(C)C)C(=O)NS(=O)(=O)C1(CCOC)CC1,BMS,IC50,,<0.05 µM
C=CC1CC1(NC(=O)[C@@H]1C[C@@H](OC(=O)Nc2ccccc2CCC)CN1C(=O)[C@@H](NC(=O)OC(C)(C)C)C(C)(C)C)C(=O)NS(=O)(=O)C1CC1,BMS/H77C/J416S,IC50,,<0.1 µM
C=CC1C[C@@]1(NC(=O)[C@@H]1C[C@@H](Oc2cc(-c3ccccc3)nc3cc(OC)ccc23)CN1C(=O)[C@@H](NC(=O)Oc1ccccc1)C(C)(C)C)C(=O)NS(=O)(=O)C1(Cc2ccccc2)CC1,BMS,IC50,,0.05–0.5 µM
C=C[C@@H]1C[C@]1(NC(=O)C1C[C@@H](Oc2cc(-c3csc(NC4CCCC4)n3)nc3cc(OC)ccc23)CN1C(=O)[C@@H](NC(=O)OC1CCCC1)C(C)(C)C)C(=O)O,,IC50,,<0.1 µM
C#CC[C@@H](C=O)C(=O)[C@H](CCC(=O)O)NC(=O)[C@@H](CCC(=O)O)NC(=O)[C@H](Cc1cccc(C)c1)NC(=O)[C@H](CCC(=O)O)NC(=O)[C@H](CC(=O)O)NC(=O)CCC(=O)O,,IC50,,22 µM
O=C(Nc1cccc(Cl)c1Cl)c1c(O)cc(O)c([N+](=O)[O-])c1O,,IC50,HPLC,10.1 µg/mL
CC[C@H](C)[C@H](NC(=O)[C@H](CCSC)NC(=O)[C@H](CCC(=O)O)NC(=O)[C@H](CC(=O)O)NC(=O)CCC(=O)O)C(=O)N[C@@H](CCC(=O)O)C(=O)N[C@H](C=O)CC(F)(F)F,,IC50,,2 µM
CCCCCCCCCCCCCNC(=O)c1c(O)cc(O)c([N+](=O)[O-])c1O,,IC50,,5.8 µM
C=C[C@@H]1C[C@]1(NC(=O)[C@@H]1C[C@@H](Oc2cc(-c3ccccc3)nc3cc(OC)ccc23)CN1C(=O)[C@@H](NC(=O)OC(C)(C)C)C(C)(C)C)C(=O)NS(=O)(=O)c1ccccc1I,BMS,IC50,,<0.05 µM
C=C[C@@H]1C[C@]1(NC(=O)C1C[C@@H](Oc2cc(-c3csc(NC4CCCC4)n3)nc3cc(OC)ccc23)CN1C(=O)[C@@H](NC(=O)OC1CCCC1)C1CCCCC1)C(=O)O,,IC50,,<0.1 µM
COc1ccc2c(O[C@@H]3C[C@@H](C(=O)NC4(C(=O)NS(=O)(=O)C5CC5)CCC45CC5)N(C(=O)[C@@H](NC(=O)OC(C)(C)C)C(C)(C)C)C3)cc(-c3ccccc3)nc2c1,BMS,IC50,,<0.5 µM
C=CC1CC1(NC(=O)[C@@H]1C[C@@H](OC(=O)Nc2c(F)cccc2F)CN1C(=O)[C@@H](NC(=O)OC(C)(C)C)C(C)(C)C)C(=O)O,BMS/H77C/J416S,IC50,,>10 µM
CC[C@@H](C=O)NC(=O)[C@@H]1C[C@@H](OCc2ccccc2)CN1C(=O)[C@H](NC(=O)[C@H](NC(=O)c1cnccn1)C(C)C)C(C)C,,Ki,,12 µM
C=C[C@@H]1C[C@]1(NC(=O)[C@@H]1C[C@@H](Oc2cc(-c3ccccc3)nc3cc(OC)ccc23)CN1C(=O)[C@@H](NC(=O)COc1ccc(F)cc1)C(C)(C)C)C(=O)NS(=O)(=O)C1CC1,BMS,IC50,,<0.05 µM

Repeating the final 2 entries:

compound	strain or isolate	endpoint	method	result
CC[C@@H](C=O)NC(=O)[C@@H]1C[C@@H](OCc2ccccc2)CN1C(=O)[C@H](NC(=O)[C@H](NC(=O)c1cnccn1)C(C)C)C(C)C		Ki		12 µM
C=C[C@@H]1C[C@]1(NC(=O)[C@@H]1C[C@@H](Oc2cc(-c3ccccc3)nc3cc(OC)ccc23)CN1C(=O)[C@@H](NC(=O)COc1ccc(F)cc1)C(C)(C)C)C(=O)NS(=O)(=O)C1CC1	BMS	IC50		<0.05 µM